A mixed list of measured activities; the numbers were collected in NIAID ChemDB.

Common to all: growth or infection tests; agent: Reovirus; method: cytopathic effect; read-out: EC50

ECn: concentration that inhibits the pathogen or its effect by n%. Rows are shuffled and stem from different studies.

{"compound": "O=c1[nH]cnc2c1ncn2[C@@H]1C=C(CO)[C@@H](O)[C@H]1O", "strain": "TYPE 1", "cell line": "VERO", "result": "150 µg/mL"}
{"compound": "CC(C)[Si]1(C(C)C)OC[C@H]2O[C@@H](n3cnc4cc(Cl)c(Cl)cc43)[C@@H](O)[C@H]2O[Si](C(C)C)(C(C)C)O1", "strain": "TYPE 1", "cell line": "HeLa", "result": ">10 µg/mL"}
{"compound": "Nc1nc(N)c2nnn(C[C@H]3CC[C@@H](CO)C3)c2n1", "strain": "TYPE 1", "cell line": "VERO", "result": ">100 µg/mL"}
{"compound": "C[C@H](COc1cc(N)nc(N)n1)OCP(=O)(O)O", "strain": "TYPE 1", "result": ">180 µM"}
{"compound": "OC[C@H]1O[C@@H](n2cnc3cc(Cl)c(Cl)cc32)[C@H](O)[C@@H]1O", "strain": "TYPE 1", "cell line": "HeLa", "result": ">10 µg/mL"}
{"compound": "Nc1nc2c(ncn2C[C@H]2CC[C@@H](CO)C2)c(=O)[nH]1", "strain": "TYPE 1", "cell line": "VERO", "result": ">200 µg/mL"}
{"compound": "Nc1ncnc2c1ncn2[C@H]1[C@H](O)[C@H](O)[C@]2(CO)O[C@H]12", "strain": "TYPE 1", "cell line": "VERO", "result": "2 µg/mL"}
{"compound": "OC[C@H]1O[C@H](n2cnc3cc(Cl)c(Cl)cc32)[C@@H](O)[C@H]1O", "strain": "TYPE 1", "cell line": "HeLa", "result": ">200 µg/mL"}
{"compound": "NC(=O)c1csc([C@@H]2O[C@H](CO)[C@@H](O)[C@H]2O)n1", "strain": "TYPE 3/ABNEY", "cell line": "VERO", "result": "9 µg/mL"}
{"compound": "OCCOC(CCO)n1cnc2cc(Cl)c(Cl)cc21", "strain": "TYPE 1", "cell line": "HeLa", "result": ">100 µg/mL"}
{"compound": "C[C@H]1C[C@@H](n2cnc3c(N)ncnc32)[C@H](O)[C@@H]1O", "strain": "TYPE 1", "cell line": "VERO", "result": "4 µg/mL"}
{"compound": "Nc1ncnc2c1c(Br)cn2[C@@H]1O[C@H](CO)[C@@H](O)[C@H]1O", "strain": "TYPE 1", "cell line": "VERO", "result": "0.02 µg/mL"}
{"compound": "Nc1ncnc2c1ncn2[C@@H]1C=C(CO)[C@@H](O)[C@H]1O", "strain": "TYPE 1", "cell line": "VERO", "result": "0.2 µg/mL"}
{"compound": "Nc1ncnc2c1ncn2C[C@H](O)CO", "strain": "TYPE 1", "cell line": "VERO", "result": "50 µg/mL"}
{"compound": "Nc1ncnc2c1ncn2[C@@H]1C=C[C@@H](O)[C@H]1O", "strain": "TYPE 1", "cell line": "VERO", "result": "0.7 µg/mL"}
{"compound": "Nc1ncnc2c1ncn2[C@@H]1OC(C#CI)[C@@H](O)[C@H]1O", "strain": "TYPE 1", "cell line": "VERO", "result": "0.78 µM"}
{"compound": "Nc1nccc2c1ncn2[C@@H]1O[C@H](CO)[C@@H](O)[C@H]1O", "strain": "TYPE 1", "cell line": "VERO", "result": "10 µg/mL"}
{"compound": "Nc1ncnc2c1ncn2C[C@H](O)CO", "strain": "TYPE 1", "cell line": "VERO", "result": "70 µg/mL"}
{"compound": "Nc1ncnc2c1ccn2[C@@H]1O[C@H](CO)[C@@H](O)[C@H]1O", "strain": "TYPE 1", "cell line": "VERO", "result": "0.07 µg/mL"}
{"compound": "Nc1nccc2c1ncn2[C@@H]1C[C@H](CO)[C@@H](O)[C@H]1O", "strain": "TYPE 1", "cell line": "VERO", "result": "2 µg/mL"}
{"compound": "Nc1nc(Cl)c2nnn(C[C@H]3CC[C@@H](CO)C3)c2n1", "strain": "TYPE 1", "cell line": "VERO", "result": ">200 µg/mL"}
{"compound": "Nc1ncnc2c1ncn2CCOCP(=O)(O)O", "strain": "TYPE 1", "result": ">185 µM"}
{"compound": "Nc1ncnc2c1c(Br)cn2[C@@H]1O[C@H](CO)[C@@H](O)[C@H]1O", "strain": "TYPE 1", "cell line": "VERO", "result": "0.07 µg/mL"}
{"compound": "OC[C@H]1O[C@@H](n2cnc3cc(Cl)c(Cl)cc32)[C@H](O)[C@H]1O", "strain": "TYPE 1", "cell line": "HeLa", "result": ">100 µg/mL"}
{"compound": "Nc1ncnc2c1ccn2[C@@H]1O[C@H](CO)[C@H](O)[C@H]1O", "strain": "TYPE 1", "cell line": "VERO", "result": "≥40 µg/mL"}
{"compound": "Nc1ncnc2c1ncn2C1CC(CO)[C@@H](O)[C@H]1O", "strain": "TYPE 1", "cell line": "VERO", "result": "0.4 µg/mL"}
{"compound": "Nc1ncnc2c1ncn2C[C@H](O)CO", "strain": "TYPE 1", "cell line": "VERO", "result": "7 µg/mL"}
{"compound": "C[C@H](Cn1cnc2c(N)ncnc21)OCP(=O)(O)O", "strain": "TYPE 1", "result": ">525 µM"}
{"compound": "Nc1nccc2c1ncn2[C@@H]1O[C@H](CO)[C@@H](O)[C@H]1O", "strain": "TYPE 1", "cell line": "VERO", "result": "10 µg/mL"}
{"compound": "Nc1nc(Cl)c2ncn(C[C@H]3CC[C@@H](CO)C3)c2n1", "strain": "TYPE 1", "cell line": "VERO", "result": ">40 µg/mL"}

Again, the opening 2 rows:

compound | strain | cell line | result
O=c1[nH]cnc2c1ncn2[C@@H]1C=C(CO)[C@@H](O)[C@H]1O | TYPE 1 | VERO | 150 µg/mL
CC(C)[Si]1(C(C)C)OC[C@H]2O[C@@H](n3cnc4cc(Cl)c(Cl)cc43)[C@@H](O)[C@H]2O[Si](C(C)C)(C(C)C)O1 | TYPE 1 | HeLa | >10 µg/mL